Compound potency records, mixed from different reports. Data source: NIAID ChemDB in PubChem.

Common to all: whole-cell or culture tests; agent: Mycobacterium smegmatis; measure: MIC99

An empty or dashed field is not shown.

| SMILES | strain or isolate | method | conditions | result |
|---|---|---|---|---|
| CCCCCCCCC#CCCCCCCC#CC(=O)O | mc2651 | - | - | >200 µM |
| C[C@H]1COc2c(N3CCSCC3)c(F)cc3c(=O)c(C(=O)O)cn1c23 | - | agar | - | 4.28 µM |
| COc1c(N2CC[C@@H](CN)C2)c(F)cc2c(=O)c(C(=O)O)cn(C3CC3)c12 | A91V mutant | - | - | 0.125 µg/mL |
| CN1[C@@H]2CC[C@H]1CC(OC(c1ccccc1)c1ccccc1)C2 | mc2155 | - | - | 125 µg/mL |
| CCOC(=O)NC(=O)c1ccsc1NC(=O)c1nc2ccccc2s1 | - | turbidity | biofilm | 0.03 µg/mL |
| CCCCCS(=O)CCCCCCCCCCC#CC(=O)O | mc2155 | - | - | >200 µM |
| CCC1CN(c2c(F)cc3c(=O)c(C(=O)O)cn(C4CC4)c3c2OC)CCN1 | D95Y mutant | - | - | 0.5 µg/mL |
| CCCCCCCCCCCCCCCCCC#CC(=O)O | mc2651 | - | - | >200 µM |
| COc1c(N2CC[C@H](N)C2)c(F)cc2c(=O)[nH]c(=O)n(C3CC3)c12 | A91V mutant | - | - | 200 µg/mL |
| CCCCCCCCCCCCCCCCCC#CCC#CC(=O)O | mc2155 | - | - | >200 µM |
| COc1c(N2CC[C@H](N)C2)c(F)cc2c(=O)n(N)c(=O)n(C3CC3)c12 | D95Y mutant | - | - | 25 µg/mL |
| CC1COc2c(N3CCC4(CC3)OCCO4)c(F)c([N+](=O)[O-])c3c(=O)c(C(=O)O)cn1c23 | - | agar | - | 3.47 µM |
| CCCCCCCCCCCCCC#CCC#CC(=O)O | mc2651 | - | - | 172.3 µM |
| COc1c(N2C[C@@H]3CCCN[C@@H]3C2)c(F)cc2c(=O)n(N)c(=O)n(C3CC3)c12 | A91V mutant | - | - | 50 µg/mL |
| C[C@H]1COc2c(N3CCC(n4c(=O)[nH]c5cc(Cl)ccc54)CC3)c(F)c([N+](=O)[O-])c3c(=O)c(C(=O)O)cn1c23 | - | agar | - | 1.39 µM |

For reference, 2 entries again:

SMILES,strain or isolate,method,conditions,result
CCCCCCCCCCCCCCCCCC#CCC#CC(=O)O,mc2155,-,-,>200 µM
COc1c(N2CC[C@H](N)C2)c(F)cc2c(=O)[nH]c(=O)n(C3CC3)c12,A91V mutant,-,-,200 µg/mL

Rows are shuffled and stem from different studies. MIC50, MIC90 and the like: level of inhibition, or share of isolates inhibited.